Earlier results in PMC7066149.

Target: HIV-1 capsid protein CA (Human immunodeficiency virus 1) (UniProt O93182)

Cyclophilin A (from UniProt P62937)
pKd: 5.00

pKd: −log10 of the molar value.
